Experimental data as given in PubChem BioAssay AID485275 (NMMLSC, 2010).
This is a selection; strong and weak results do not stand in their true shares. The source made the active and inactive calls.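 How the source made its calls: active means plate passing quality check with inhibition over a set limit, or well fluorescence over plate mean plus 4 SD; inactive means the rest.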

assay: antifungal drug efflux pump blockers, triplex strains – S. cerevisiae, Nile Red, multiplex, primary screen (AID 485275);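 further: Nile Red retained in pooled yeast measured as flow cytometry median fluorescence; 0% = buffer negative control and 100% = Enniatin B positive control; higher means more Nile Red kept so more efflux inhibition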; settings: S. cerevisiae Candida pump triplex, at 10 µM, active compounds read high

Row | Compound | inhibition
1 | CN1CCC(Nc2cccc(F)c2)CC1 | inactive: -0.19%
2 | O=C(NCC1(N2CCCCC2)CCCCC1)c1cncc(Br)c1 | inactive: 0.02%
3 | CCCOc1ccc(C(=O)NCC2(N(C)C)CCCCC2)cc1OC | inactive: -0.15%
4 | CN(C)c1cccc(C(=O)NCC2(N3CCCCC3)CCCCC2)c1 | inactive: -0.11%
5 | COc1ccc(CN(CCCl)CCCl)cc1Cl | inactive: -0.03%
6 | CC(C)c1ccc(NC2CCN(C(=O)OC(C)(C)C)CC2)cc1 | inactive: 0%
7 | O=C(NCC1(N2CCOCC2)CCCCC1)c1cc(F)c(F)cc1Cl | inactive: 0.15%
8 | COc1cc(OC)c(C(=O)NCC2(N(C)C)CCCCC2)cc1OC | inactive: 0.22%
9 | O=C(NCC1(N2CCCCC2)CCCCC1)c1cccc(C(F)(F)F)c1 | inactive: 0.09%
10 | COc1ccc(NC2CCN(C(=O)OC(C)(C)C)CC2)cc1 | inactive: -0.1%
11 | CN1CCN(CCOC(=O)C(O)(c2ccccc2)c2ccccc2)CC1 | inactive: 0.48%
12 | O=C(NCC1(N2CCOCC2)CCCCC1)c1cc(=O)[nH]c2ccccc12 | inactive: 0.18%
13 | COc1cc(C(=O)NCC2(N3CCCCC3)CCCCC2)ccc1OC(F)F | inactive: -0.14%
14 | O=C(NCC1(N2CCCCC2)CCCCC1)c1ccc(OC(F)F)cc1 | inactive: 0.13%
15 | O=C(NCC1(N2CCCCC2)CCCCC1)c1cccc([N+](=O)[O-])c1 | inactive: -0.09%
16 | N#CC1(Nc2ccccc2)CCN(CCc2ccccc2)CC1 | inactive: -0.05%
17 | CCN1CCC(Nc2ccc(Cl)cc2)CC1 | inactive: -0.1%
18 | Cc1ccc(OCC(C)C)c(CN(CCCl)CCCl)c1 | inactive: 0.01%
19 | CCOC(=O)N1CCC(Nc2cccc(C)c2)CC1 | inactive: -0.07%
20 | COc1cc(C(=O)NCC2(N(C)C)CCCCC2)ccc1OC(F)F | inactive: -0.11%
21 | CCOc1ccc(C)cc1CN(CCCl)CCCl | inactive: -0.09%
22 | CCOC(=O)N1CCC(Nc2ccc(F)cc2)CC1 | inactive: 0%

Row | Compound | inhibition
23 | COc1ccc(NC2CCN(CCc3ccccc3)CC2)c(OC)c1 | inactive: 0.08%
24 | O=C(NCC1(N2CCCCC2)CCCCC1)c1ccc(F)cc1 | inactive: 0.04%
25 | O=C(NCC1(N2CCOCC2)CCCCC1)c1cc2ccccc2o1 | inactive: -0.08%
26 | Cc1cc(C)cc(N(C(=O)c2ccccc2)C2CCN(C(=O)OC(C)(C)C)CC2)c1 | inactive: 0.19%
27 | O=C(NCC1(N2CCCCC2)CCCCC1)c1ccc(Cl)nc1 | inactive: 0.01%
28 | CCOC(=O)N1CCC(Nc2ccc(OC)cc2)CC1 | inactive: 0.1%
29 | COc1ccc(Cl)cc1C(=O)NCC1(N2CCOCC2)CCCCC1 | inactive: 0.04%
30 | O=C(NCC1(N2CCCCC2)CCCCC1)c1ccc(Cl)s1 | inactive: -0.07%
31 | N#CC1(Nc2ccccc2)CCN(Cc2ccccc2)CC1 | inactive: -0.11%
32 | O=C(OC1CN2CCC1CC2)C1c2ccccc2Oc2ccccc21 (stereo unspecified) | inactive: -0.09%
33 | O=C(NCC1(N2CCCCC2)CCCCC1)c1cccs1 | inactive: -0.18%
34 | O=C(NCC1(N2CCCCC2)CCCCC1)c1ccc(=O)[nH]c1 | inactive: -1.16%
35 | COc1ccc(C(=O)NCC2(N3CCCCC3)CCCCC2)c(OC)c1OC | inactive: -0.09%
36 | CC(C)(C)OC(=O)N1CCC(N(C(=O)c2ccccc2)c2ccc(F)cc2)CC1 | inactive: -0.01%
37 | COc1ccc(C(=O)NCC2(N3CCCCC3)CCCCC2)cc1 | inactive: 0.05%
38 | CSc1ccccc1C(=O)NCC1(N2CCCCC2)CCCCC1 | inactive: -0.04%
39 | CCC(CO)(C(=O)OC1CN2CCC1CC2)c1ccccc1 (stereo unspecified) | inactive: -0.21%
40 | COc1cccc(C(=O)N(c2cc(C)cc(C)c2)C2CCN(C(=O)OC(C)(C)C)CC2)c1 | inactive: 0.28%
41 | COc1cc(OC)cc(C(=O)NCC2(N3CCOCC3)CCCCC2)c1 | inactive: 0.05%
42 | CCCOc1ccc(C)cc1CN(CCCl)CCCl | inactive: 0.09%
43 | CN1CCC(Nc2ccc(Cl)cc2)CC1 | inactive: -0.19%
44 | CN1CCC(Nc2ccc(F)c(Cl)c2)CC1 | inactive: 0.17%

Row | Compound | inhibition
45 | CCOc1ncccc1C(=O)NCC1(N2CCOCC2)CCCCC1 | inactive: 0.1%
46 | CCCOc1ccc(C(=O)NCC2(N(C)C)CCCCC2)cc1 | inactive: -0.31%
47 | O=C(O)C1(Nc2ccccc2)CCN(Cc2ccccc2)CC1 | inactive: 0.06%
48 | CC(C)(C)OC(=O)N1CCC(Nc2ccccc2)CC1 | inactive: -0.24%
49 | CCN1CCC(Nc2cccc(F)c2)CC1 | inactive: 0%
50 | CN(C)c1ccc(C(=O)NCC2(N3CCCCC3)CCCCC2)cc1 | inactive: 0.02%
51 | O=C(NCC1(N2CCCCC2)CCCCC1)c1ccco1 | inactive: 0.22%
52 | COc1cc(OC)cc(C(=O)NCC2(N3CCCCC3)CCCCC2)c1 | inactive: -0.3%
53 | Fc1ccccc1NC1CCN(Cc2ccccc2)CC1 | inactive: 0.12%
54 | Cc1ccc(C(=O)NCC2(N3CCCCC3)CCCCC2)o1 | inactive: 0.04%
55 | CCCN1CCC(Nc2cc(OC)cc(OC)c2)CC1 | inactive: -0.31%
56 | c1ccc(CN2CCC(Nc3ccccc3)CC2)cc1 | inactive: 0.17%
57 | CN(C)C1(CNC(=O)c2cccc(C#N)c2)CCCCC1 | inactive: 0.23%
58 | CC(C)(C)OC(=O)N1CCC(N(C(=O)c2ccccc2)c2ccc(Cl)cc2)CC1 | inactive: -0.44%
59 | N#Cc1ccc(C(=O)NCC2(N3CCCCC3)CCCCC2)cc1 | inactive: 0.03%
60 | N/C(=N\O)c1c(N)no[n+]1[O-] | inactive: 0.17%
61 | CCOC(=O)N1CCC(Nc2ccc(C)cc2)CC1 | inactive: -0.04%
62 | CCc1cc(C(=O)NCC2(N3CCCCC3)CCCCC2)sc1C | inactive: -0.1%
63 | O=C(OC1CN2CCC1CC2)C1c2ccccc2C=Cc2ccccc21 (stereo unspecified) | inactive: -0.5%
64 | O=C(NCC1(N2CCOCC2)CCCCC1)c1cc(Br)ccc1Cl | inactive: 0.09%
65 | COc1cc(C(=O)NCC2(N3CCOCC3)CCCCC2)cc(OC)c1C | inactive: 0.1%
66 | COc1ccc(C(=O)NCC2(N3CCOCC3)CCCCC2)cc1OC | inactive: 0.06%
